Compound potency records, mixed from different reports. Data source: NIAID ChemDB in PubChem.

Shared fields: growth or infection tests; organism: HIV-1; measure: inhibition

Blank or dashed fields: not listed here. Inhibition is in % at the dose shown (toxicity tests: loss of growth or viability). Conditions beyond the fields shown may differ between rows.

compound | strain or isolate | mutations | cells | method | conditions | tested at | result
Cc1cn([C@H]2C[C@@H](O)[C@@H](CO)O2)c(=O)nc1N1CCCC1 | IIIB | - | CEM-SS | XTT / cell fusion | - | 10 µM | 0%
Cc1ccc(C)c(NS(=O)(=O)c2cc(C(=O)NCc3ccccn3)ccc2Cl)c1 | Clinical isolate | Raltegravir-resistant | C8166 | p24 | - | 1.25 µM | 90%
CC(C)[C@H](NC(=O)[C@H](Cc1ccccc1)C[C@H](O)[C@H](Cc1ccccc1)NC(=O)OC(C)(C)C)C(=O)N[C@@H](Cc1ccccc1)C(=O)N1CCOCC1 | AMS316-23 | - | PBL | RT activity | - | 0.1 µM | 99.5%
Nc1ccn([C@H]2CC[C@@H](CO)O2)c(=O)n1 | LAV | - | MT-2 | cytopathic effect / trypan blue | - | 1 µM | 99%
CCOC(=O)/C=C/c1ccc(OC(=O)CCC(=O)Oc2c(C)c(C)c3c(c2C)CC[C@@](C)(CCC[C@H](C)CCC[C@H](C)CCCC(C)C)O3)cc1 | BaL | - | Macrophage + Monocytes/macrophages | - | - | 10 µM | 55%
C[C@H]1[C@H](O)[C@@H](C)/C=C/C=C/C=C/C=C/C=C/C=C/C=C/[C@H](O[C@@H]2O[C@H](C)[C@@H](O)[C@H](N)[C@@H]2O)C[C@@H]2O[C@](O)(C[C@@H](O)C[C@@H](O)CC[C@H](O)[C@@H](O)C[C@@H](O)CC(=O)O[C@H]1C)C[C@H](O)[C@H]2C(=O)O | IIIB | - | H9 | p24 / antigen | - | 0.01 µg/mL | 29%
CCCCCCCCCCCCCCCCOP(=O)(OC[C@H]1OC(O)[C@@H](O)[C@@H](O)[C@@H]1O)OC[C@H]1O[C@@H](n2cc(C)c(=O)[nH]c2=O)C[C@@H]1N=[N+]=[N-] | LAV-Bru | - | U-937 | RT activity | 11 d | 1 µM | 0%
Nc1ccc(S(=O)(=O)O)c2cccc(O)c12 | - | - | H9 | p24 | - | 20 µg/mL | 50%
N=C1Sc2ccccc2C2=NCCCN12 | 98IN022 | - | PBMC | ELISA | - | 1.48 µM | 90%
COc1cccc2c(C(=O)C(=O)N3CCN(C(=O)c4ccccc4)C[C@H]3C)c[nH]c12 | - | - | HeLa + HELA CD4+/CCR5 | luciferase | - | 10 µM | >98%
O=c1ccnc(N2CCC[C@H]2CO)[nH]1 | IIIB | - | CEM-SS | visual reading / cell fusion | - | 10 µM | 4.1%
CCCCCCCCCCCCCCCCOP(=O)(OCCO[C@@H]1O[C@H](CO)[C@@H](O)[C@H](O)[C@@H]1O)OC[C@H]1O[C@@H](n2cc(C)c(=O)[nH]c2=O)C[C@@H]1N=[N+]=[N-] | LAV-Bru | - | U-937 | RT activity | 11 d | 1 µM | 0%
Nc1ncnc2c1ncn2COCCOP(=O)(O)O[C@@H]1C[C@@H](COP(=O)(O)O[C@@H]2C[C@@H](COP(=O)(O)O[C@@H]3C[C@@H](CO)O[C@H]3n3cnc4c(NCc5ccccc5)ncnc43)O[C@H]2n2cnc3c(N)ncnc32)O[C@H]1n1cnc2c(N)ncnc21 | - | - | SupT1 + Sup-T1 | syncytia | - | 10 µM | 86%
COc1ccc(Br)c2[nH]cc(C(=O)C(=O)N3CCN(C(=O)c4ccccc4)CC3)c12 | - | - | HeLa + HELA CD4+/CCR5 | luciferase | - | 10 µM | >98%
C[C@H]1[C@H](O)[C@@H](C)/C=C/C=C/C=C/C=C/C=C/C=C/C=C/[C@H](O[C@@H]2O[C@H](C)[C@@H](O)[C@H](N)[C@@H]2O)C[C@@H]2O[C@](O)(C[C@@H](O)C[C@@H](O)CC[C@H](O)[C@@H](O)C[C@@H](O)CC(=O)O[C@H]1C)C[C@H](O)[C@H]2C(=O)O | 92UG037 CLADE A R5 (NSI) | - | PBMC | p24 / RT activity | - | 3.4 µM | 90%
C[C@@H]1CN(C(=O)c2cccc(N)c2)CCN1C(=O)C(=O)c1c[nH]c2c(F)ccc(F)c12 | - | - | HeLa + HELA CD4+/CCR5 | luciferase | - | 10 µM | >98%
CCN(CC)C(=S)S | LAV | - | PBL | RT activity | - | 0.00000025 µg/mL | 73%
O=C(C(=O)N1CCN(C(=O)C2=Nc3ccccc3C2)CC1)c1c[nH]c2cccc(F)c12 | - | - | HeLa + HELA CD4+/CCR5 | luciferase | - | 10 µM | 70%
CC1=C(C(=O)OCc2ccccc2)C(c2ccc(Cl)cc2)NC(=O)N1 | - | - | HEK293T | p24 / ELISA | - | 100 µM | 47.5%
Nc1ccn([C@H]2C=C[C@@H](CO)O2)c(=O)n1 | IIIB | - | MT-4 | antigen | - | 0.5 µM | 85%
CC1=C(C(=O)O)C(c2ccc(C)cc2)NC(=O)N1 | - | - | HEK293T | p24 / ELISA | - | 100 µM | 42.6%
CC(C)(C)OC(=O)Nc1ccc(C(=O)N2CCN(C(=O)C(=O)c3c[nH]c4cccc(F)c34)CC2)cc1 | - | - | HeLa + HELA CD4+/CCR5 | luciferase | - | 10 µM | 95%
Nc1nc(N)c2ncn([C@@H]3O[C@H](CO)C[C@@H]3F)c2n1 | LAI | - | ATH-8 + ATH8 | cytopathic effect / XTT | - | 1 µM | 23%
COc1ccc(Br)c2[nH]cc(C(=O)C(=O)N3CCN(C(=O)c4ccccn4)C[C@H]3C)c12 | - | - | HeLa + HELA CD4+/CCR5 | luciferase | - | 10 µM | >98%
CC(C)c1cnn2c(NCc3ccc(-c4ccccn4)cc3)nc(N[C@H](CO)C(C)O)nc12 | - | - | U1 | trypan blue | - | 0.05 µM | 50%
CC1(C)[C@@H](O[C@H]2O[C@H](C(=O)O)[C@@H](O)[C@H](O)[C@H]2O[C@@H]2O[C@H](C(=O)O)[C@@H](O)[C@H](O)[C@H]2O)CC[C@]2(C)[C@H]3C(=O)C=C4[C@@H]5C[C@@](C)(C(=O)O)CC[C@]5(C)CC[C@@]4(C)[C@]3(C)CC[C@@H]12 | IIIB | - | MOLT-4 | antigen | 6 d | 1200 µM | 39.8%
Nc1cc(S(=O)(=O)O)c2ccccc2c1N | - | - | MOLT-3 | syncytia | - | 1 µg/mL | 30%
Nc1ncnc2c1ncn2COCCOP(=O)([O-])O[C@@H]1C[C@@H](COP(=O)([O-])O[C@@H]2C[C@@H](COP(=O)([O-])O[C@@H]3C[C@@H](CO)O[C@H]3n3cnc4c(N)[n+](Cc5ccccc5)cnc43)O[C@H]2n2cnc3c(N)ncnc32)O[C@H]1n1cnc2c(N)ncnc21 | - | - | SupT1 + Sup-T1 | RT activity | - | 100 µM | 67%
CO[C@]1(C)OC[C@H]([C@@H]2CC(=O)C[C@H](c3ccccc3)C23C(=O)OC(C)(C)OC3=O)O[C@@]1(C)OC | NL4-3 | - | SupT1 | MTT | - | 0.0001 µM | >45%
CC1=C(C(=O)OCc2ccccc2)C(c2ccccc2Cl)NC(=O)N1 | - | - | HEK293T | p24 / ELISA | - | 100 µM | 18.7%
NCCSSCCN | BaL | - | Macrophage | p24 | - | 100 µM | 65%
O=c1oc2cc(O)c(O)cc2c(O)c1-c1coc2c1c(=O)oc1cc(O)c(O)cc12 | IIIB | - | MT-4 | MTT | - | 10 µM | 55%
OC[C@H]1O[C@@H](n2cnc3c(N4C[C@H](O)[C@@H](O)C4)ncnc32)C[C@H]1O | IIIB | - | CEM-SS | visual reading / cell fusion | - | 10 µM | 0%
CC1=C(C(=O)O)C(c2ccc(F)cc2)NC(=O)N1 | - | - | HEK293T | p24 / ELISA | - | 100 µM | 28.8%
Cc1cn([C@H]2CC(O)[C@@H](CO)O2)c(=O)nc1N1CCCC1 | IIIB | - | CEM-SS | XTT / cell fusion | - | 10 µM | 0%
C[C@@H]1CN(C(=O)c2ccccn2)CCN1C(=O)C(=O)c1c[nH]c2c(F)cccc12 | - | - | HeLa + HELA CD4+/CCR5 | luciferase | - | 10 µM | >98%
Nc1ncnc2c1ncn2COCCOP(=O)([O-])O[C@@H]1[C@H](O)[C@@H](COP(=O)([O-])O[C@@H]2[C@H](O)[C@@H](COP(=O)([O-])O[C@@H]3[C@H](O)[C@@H](CO)O[C@H]3n3cnc4c(N)ncnc43)O[C@H]2n2cnc3c(N)ncnc32)O[C@H]1n1cnc2c(N)ncnc21 | - | - | SupT1 + Sup-T1 | p24 | - | 100 µM | 41%
O=C(C(=O)N1CCN(C(=O)c2ccccc2)CC1)c1c[nH]c2cc(C(F)(F)F)ccc12 | - | - | HeLa + HELA CD4+/CCR5 | luciferase | - | 10 µM | 38%
NCCSSCCN | IIIB | - | PBL | p24 | - | 100 µM | 75%
Nc1nc(Cl)c2ncn([C@@H]3O[C@H](CO)C[C@@H]3F)c2n1 | LAI | - | ATH-8 + ATH8 | cytopathic effect / XTT | - | 50 µM | 61%
Cc1cn([C@H]2C[C@H](N=[N+]=[N-])[C@@H](COP(=O)(O)OCCO[C@H]3O[C@H](CO)[C@@H](O)[C@H](O)[C@@H]3O)O2)c(=O)[nH]c1=O | LAV-Bru | - | CEM | RT activity | 22 d | 25 µM | 90%
O=c1nc(N2C[C@H](O)[C@@H](O)C2)ccn1[C@H]1CC[C@@H](CO)O1 | IIIB | - | CEM-SS | visual reading / cell fusion | - | 10 µM | 2%
CCOc1cccc2[nH]cc(C(=O)C(=O)N3CCN(C(=O)c4ccccc4)CC3)c12 | - | - | HeLa + HELA CD4+/CCR5 | luciferase | - | 10 µM | >98%
O=C(O)CCC(CCC(=O)O)(CCC(=O)O)NC(=O)CCC(CCC(=O)NC(CCC(=O)O)(CCC(=O)O)CCC(=O)O)(CCC(=O)NC(CCC(=O)O)(CCC(=O)O)CCC(=O)O)NC(=O)CCCOC(=O)C1(C(=O)OCCCC(=O)NC(CCC(=O)NC(CCC(=O)O)(CCC(=O)O)CCC(=O)O)(CCC(=O)NC(CCC(=O)O)(CCC(=O)O)CCC(=O)O)CCC(=O)NC(CCC(=O)O)(CCC(=O)O)CCC(=O)O)C2c3cc4c5c6c3-c3c(cc7c8c3C6C3c6c-5c(cc5ccc9cc(c-8c3c9c65)C7)C4)C21 | AZT/3TC-resistant (RT M184V T215Y) | - | PBMC | cytopathic effect | - | 2 µM | 90%

Repeating the final 6 entries:

{"compound": "NCCSSCCN", "strain or isolate": "IIIB", "cells": "PBL", "method": "p24", "tested at": "100 µM", "result": "75%"}
{"compound": "Nc1nc(Cl)c2ncn([C@@H]3O[C@H](CO)C[C@@H]3F)c2n1", "strain or isolate": "LAI", "cells": "ATH-8 + ATH8", "method": "cytopathic effect / XTT", "tested at": "50 µM", "result": "61%"}
{"compound": "Cc1cn([C@H]2C[C@H](N=[N+]=[N-])[C@@H](COP(=O)(O)OCCO[C@H]3O[C@H](CO)[C@@H](O)[C@H](O)[C@@H]3O)O2)c(=O)[nH]c1=O", "strain or isolate": "LAV-Bru", "cells": "CEM", "method": "RT activity", "conditions": "22 d", "tested at": "25 µM", "result": "90%"}
{"compound": "O=c1nc(N2C[C@H](O)[C@@H](O)C2)ccn1[C@H]1CC[C@@H](CO)O1", "strain or isolate": "IIIB", "cells": "CEM-SS", "method": "visual reading / cell fusion", "tested at": "10 µM", "result": "2%"}
{"compound": "CCOc1cccc2[nH]cc(C(=O)C(=O)N3CCN(C(=O)c4ccccc4)CC3)c12", "cells": "HeLa + HELA CD4+/CCR5", "method": "luciferase", "tested at": "10 µM", "result": ">98%"}
{"compound": "O=C(O)CCC(CCC(=O)O)(CCC(=O)O)NC(=O)CCC(CCC(=O)NC(CCC(=O)O)(CCC(=O)O)CCC(=O)O)(CCC(=O)NC(CCC(=O)O)(CCC(=O)O)CCC(=O)O)NC(=O)CCCOC(=O)C1(C(=O)OCCCC(=O)NC(CCC(=O)NC(CCC(=O)O)(CCC(=O)O)CCC(=O)O)(CCC(=O)NC(CCC(=O)O)(CCC(=O)O)CCC(=O)O)CCC(=O)NC(CCC(=O)O)(CCC(=O)O)CCC(=O)O)C2c3cc4c5c6c3-c3c(cc7c8c3C6C3c6c-5c(cc5ccc9cc(c-8c3c9c65)C7)C4)C21", "strain or isolate": "AZT/3TC-resistant (RT M184V T215Y)", "cells": "PBMC", "method": "cytopathic effect", "tested at": "2 µM", "result": "90%"}